A short description of one data set: peptide synthesis. Conditions: whole synthesis, acetate.
Data set [1] can be described thus: general procedure: Fmoc solid-phase peptide synthesis; Rink Amide MBHA resin (substitution about 0.4 mmol/g). Particulars: whole synthesis, acetate; for final HPLC purity: analytical liquid phase (HPLC); for final HPLC purity / isolated yield: scale of the general procedure 1 mmol; for isolated yield: total yield.

Experimental findings from patent US20260055154A1 (CHENGDU AODA BIOTECHNOLOGY CO., LTD, priority 2022, published 2026) are described below.

Consider “His-Aib-Gln-Gly-Thr-Phe-Thr-Ser-Asp-Tyr-Ser-Lys-Tyr-Leu-Asp-Glu-Lys-Lys-Ala-Lys(PEG5CH2CO-γGlu-eicosanedioic acid)-Glu-Phe-Val-Glu-Trp-Leu-Leu-Glu-Gly-Gly-Pro-Ser-Ser-Gly-Ala-Pro-Pro-Pro-Ser-NH2”, for which, in “peptide synthesis”, the “final HPLC purity” value was found to be 97.0% and the isolated yield came out at 8.6%.

For the substance “His-Aib-Gln-Gly-Thr-Phe-Thr-Ser-Asp-Tyr-Ser-Lys-Tyr-Leu-Asp-Glu-Lys-Lys-Ala-Lys(Gly-Gly-Ser-Gly-Ser-Gly-γGlu-eicosanedioic acid-γGlu-eicosanedioic acid)-Glu-Phe-Val-Glu-Trp-Leu-Leu-Glu-Gly-Gly-Pro-Ser-Ser-Gly-Ala-Pro-Pro-Pro-Ser-NH2”, in data set [1], the isolated mass came out at 0.33 g, the “final HPLC purity” value amounted to 93.4% and the isolated yield amounted to 6.4%.

“His-Aib-Gln-Gly-Thr-Phe-Thr-Ser-Asp-Tyr-Ser-Lys-Tyr-Leu-Asp-Glu-Lys-Lys-Ala-Lys(AEEA-AEEA-γGlu-eicosanedioic acid)-Glu-Phe-Val-Glu-Trp-Leu-Leu-Glu-Gly-Gly-Pro-Ser-Ser-Gly-Ala-Pro-Pro-Pro-Ser-NH2”: in data set [1], the “final HPLC purity” value is reported as 97.9% and the isolated yield amounted to 7.0%. Moreover, the isolated mass in data set [1] (scale 1 mmol) is 0.35 g.

Consider “His-Aib-Gln-Gly-Thr-Phe-Thr-Ser-Asp-Tyr-Ser-Lys-Tyr-Leu-Asp-Glu-Lys-Lys-Ala-Lys(Gly-Gly-Glu-Gly-Glu-Gly-γGlu-eicosanedioic acid)-Glu-Phe-Val-Glu-Trp-Leu-Leu-Glu-Gly-Gly-Gly-Pro-Ser-Ser-Gly-Ala-Pro-Pro-Pro-Ser-NH2”, for which, in data set [1], the isolated mass is listed as 0.30 g, the “final HPLC purity” value worked out at 96.5% and the isolated yield is listed as 5.8%.
